Measured values from paper PMC11981937 (Nature, 2025).

Molecular target: M protein (Severe acute respiratory syndrome coronavirus 2, UniProt P0DTC5)
Assay: Photo affinity labeling target deconvolution
Conditions: concluded from experiments with an analogue

SMILES: C[C@H]1Cn2ncc(C(=O)Nc3cccc(C#N)c3)c2C(=O)N1c1ccc(C(F)(F)c2ccccc2)cc1 [JNJ-9676, (S)-N-(3-cyanophenyl)-5-(4-(difluoro(phenyl)methyl)phenyl)-6-methyl-4-oxo-4,5,6,7-tetrahydropyrazolo[1,5-a]pyrazine-3-carboxamide]
- target selectivity (in words): selective for M protein
